What was measured:
[1] = Potency to inhibit African Sierra Leone(D-6) clone relative to artemisinin.; type: functional
Procedure, shortened: (§1)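 Ratio of artemisinin IC50 to test-compound IC50, both measured in the same [3H]hypoxanthine microdilution assay against the named clone. Parasites were at 0.5% parasitemia and 1% hematocrit, exposed for 24 h at 37 °C under low oxygen, then labelled for 18–20 h. IC50s came from a four-parameter logistic fit of duplicate wells.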

[2] = Potency to inhibit Indochina(W-2) clone relative to artemisinin.; type: functional; procedure, shortened: as §1

| Compound | Relative potency [1] | Relative potency [2] |
| --- | --- | --- |
| CCOP(=S)(OCC)OCC[C@@H]1CCC[C@@H]2CC[C@]3(C)OO[C@]21[C@@H](OC)O3 | 1.1 | 3.5 |
| CO[C@H]1O[C@]2(C)CC[C@H]3CCC[C@@H](CCOP(=O)(Oc4ccccc4)Oc4ccccc4)[C@]31OO2 | 2.3 | > 7 |

— ChEMBL document CHEMBL1125468, “Extraordinarily potent antimalarial compounds: new, structurally simple, easily synthesized, tricyclic 1,2,4-trioxanes” (J Med Chem, 1992)
